Anti-infective test results gathered from many reports (values: NIAID ChemDB through PubChem).

Shared fields: whole-cell or culture tests; organism: Candida albicans; read-out: MIC50

Neighbouring rows are from separate reports.

compound | strain or isolate | conditions | method | value
CC(C)=CCN=C(N)NCCCCCCCCCNCCCCCCCNC(N)=NCC=C(C)C | 53T |  |  | 80 µM
CC[C@@H]([C@H](C)O)n1ncn(-c2ccc(N3CCN(c4ccc(OC[C@@H]5CO[C@@](Cn6cncn6)(c6ccc(F)cc6F)C5)cc4)CC3)cc2)c1=O |  |  | broth dilution | 0.03 µg/mL
CCC(C)CC(C)CCCCCCCCC(=O)N[C@H]1C[C@@H](O)[C@H](NCCN)NC(=O)[C@@H]2[C@@H](O)CCN2C(=O)[C@H]([C@H](O)CCN)NC(=O)[C@H]([C@H](O)[C@@H](O)c2ccc(O)cc2)NC(=O)[C@@H]2C[C@@H](O)CN2C(=O)[C@H]([C@@H](C)O)NC1=O | 40 isolates azole-susceptible |  |  | 0.2 µg/mL
O=c1[nH]n(-c2ccccc2)c(=O)c2cc3c(cc12)[nH]c1ccc(N2CCNCC2)cc13 | Clinical isolates |  | agar | 128 µg/mL
Clc1ccc(C(Cn2ccnc2)OCc2csc3c(Cl)cccc23)c(Cl)c1 | 63 isolates | 24 h | absorbance | 0.5 µg/mL
N=C(N)N(CCCCCCCCCN=C(N)N)CCCCCCCN=C(N)N | 4T |  |  | 5 µM
Nc1ncccc1-c1cc(Cc2ccc(COc3ccccn3)cc2)no1 | IFM49971 | 10% human serum | broth dilution | 0.016 µg/mL
C=CCSS(=O)CC=C | Clinical Isolate 2605 |  | broth dilution | 0.39 µg/mL
CCC(C)CC(C)CCCCCCCCC(=O)N[C@H]1C[C@@H](O)[C@H](NCCN)NC(=O)[C@@H]2[C@@H](O)CCN2C(=O)[C@H]([C@H](O)CCN)NC(=O)[C@H]([C@H](O)[C@@H](O)c2ccc(O)cc2)NC(=O)[C@@H]2C[C@@H](O)CN2C(=O)[C@H]([C@@H](C)O)NC1=O |  |  | broth dilution | 0.25 µg/mL
CC(=O)N1CCN(c2ccc(OC[C@H]3CO[C@](Cn4ccnc4)(c4ccc(Cl)cc4Cl)O3)cc2)CC1 | 50 isolates |  |  | 0.01 µg/mL
CCN(CC)CCCC(C)Nc1c2ccc(Cl)cc2nc2ccc(OC)cc12 | SC5314 | biofilm | broth dilution | 125 µg/mL
CCC(C)CC(C)CCCCCCCCC(=O)N[C@H]1C[C@@H](O)[C@H](NCCN)NC(=O)[C@@H]2[C@@H](O)CCN2C(=O)[C@H]([C@H](O)CCN)NC(=O)[C@H]([C@H](O)[C@@H](O)c2ccc(O)cc2)NC(=O)[C@@H]2C[C@@H](O)CN2C(=O)[C@H]([C@@H](C)O)NC1=O | SC5314 |  | broth dilution / turbidity | 0.06 µg/mL
O=c1[nH]n(-c2ccccc2)c(=O)c2cc3c(cc12)[nH]c1cc2c(=O)[nH]n(-c4ccccc4)c(=O)c2cc13 | Clinical isolates |  | agar | 16 µg/mL
Cc1ccc(-c2c3c(N)c4c(nc3nc3c2c(C)nn3-c2ccccc2)CCC4)cc1 | CCC 127 |  | broth dilution / absorbance | 31.2 µg/mL
Nc1ncccc1-c1cc(Cc2ccc(COc3ccccn3)cc2)no1 |  |  | broth dilution | <0.03 µg/mL
CC(C)=CCN=C(N)NCCCCCCCN1CCCCCCCCN=C(N)NC1=O | 15T |  |  | 20 µM
O=C1O/C(=C\c2ccc(OCC(O)(Cn3cncn3)c3ccc(F)cc3F)cc2)C(c2ccc(F)cc2F)=C1c1ccc(Cl)cc1 | ATCC 24433 |  | broth dilution | 4 µg/mL
C#CCNC(N)=NCCCCCCCN1CCCCCCCCN=C(N)NC1=O | 4T |  |  | 80 µM
Cc1nn(-c2ccccc2)c2nc3nc4c(c(N)c3c(-c3ccc(Cl)cc3)c12)CCC4 | ATCC 10231 |  | broth dilution / absorbance | 125 µg/mL
NC(N)=NCCCCCCCNCCCCCCCCCNC(N)=NCC1CC1 | 53T |  |  | 10 µM
CNCCN(C)c1ccc2[nH]c3cc4c(=O)[nH]n(-c5ccccc5)c(=O)c4cc3c2c1 | Clinical isolates |  | agar | 16 µg/mL
C[C@@H](c1ncncc1F)[C@](O)(Cn1cncn1)c1ccc(F)cc1F | Isolate M27-T-micro | 24 h |  | 0.048 µg/mL
Cc1ccc(-c2c3c(N)c4c(nc3nc3c2c(C)nn3-c2ccccc2)CCCC4)cc1 | CCC 130 |  | broth dilution / absorbance | 15.6 µg/mL
O=c1[nH]n(-c2ccccc2)c(=O)c2cc3c(cc12)[nH]c1ccc([N+](=O)[O-])cc13 | Clinical isolates |  | agar | 16 µg/mL

Repeating the final 2 entries:

compound,strain or isolate,conditions,method,value
Cc1ccc(-c2c3c(N)c4c(nc3nc3c2c(C)nn3-c2ccccc2)CCCC4)cc1,CCC 130,,broth dilution / absorbance,15.6 µg/mL
O=c1[nH]n(-c2ccccc2)c(=O)c2cc3c(cc12)[nH]c1ccc([N+](=O)[O-])cc13,Clinical isolates,,agar,16 µg/mL

A number after MIC or MFC names an inhibition level or a share of isolates. An empty or dashed field is not shown.